Measured values: US5929070A (Eli Lilly and Company, priority 1997, dated 1999)

Test system: 5-HT-2 receptor
Assay: pharmacological studies, 5-HT-2 receptor activity

## Cc1cc2c(s1)Nc1ccccc1N=C2N1CCN(C)CC1 [olanzapine, 2-methyl-4-(4-methyl-1-piperazinyl)-10H-thieno[2,3-b][1,5]benzodiazepine]
  activity at the 5-HT-2 receptor: active
